Results as given in US9642889B2, “Macrocyclic inhibitors of Flaviviridae viruses” (Selcia Limited, priority 2012, dated 2017).
Read-outs that look alike come from different tables or passages of the source.

Chains of the proteins cited; added tags and fusions are not shown.
UniProt P62937, whole entry: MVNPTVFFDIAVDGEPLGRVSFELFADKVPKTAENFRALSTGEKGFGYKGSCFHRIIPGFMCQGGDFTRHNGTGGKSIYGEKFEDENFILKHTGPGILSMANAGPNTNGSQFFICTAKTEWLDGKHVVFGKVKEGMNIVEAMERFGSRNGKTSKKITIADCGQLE

What was measured:
cyclophilin A = cyclophilin A (Homo sapiens, UniProt P62937); experiment: Cyclophilin A TR-FRET competitive binding assay; details: read-out: TR-FRET IC50; competition with CsA-Cy5 for His-tagged CypA, two-hour incubation
[1] = test system: Huh-7 HCV replicon cells (1b replicon); experiment: anti-HCV activity in Huh-7 cell line harboring a HCV replicon (luciferase readout); type: cell-based
[2] = inhibition of viral replication, Huh-7 HCV replicon cells, 3 days

Row | SMILES | IC50 (cyclophilin A) [nM] | EC50 [1] [nM] | Replicon 1b % inhibition at 1 μM [1] [%] | Replicon 1b % inhibition at 1 μM ([1]; 1b replicon, 1 μM compound) [%] | EC50 [1, 2] [nM]
1 | CC(C)[C@@H]1OC(=O)[C@H](CCC2(C)OCCO2)C/C=C/c2cc3cc(ccc3cn2)[C@@H](C)NC(=O)[C@@H]2CCCN(N2)C(=O)[C@H](C)NC1=O | < 100 | < 1000 | 100 |  | 
2 | COCC1NC(=O)[C@H](C(C)C)OC(=O)C(C)(C)/C=C/c2ccc3ccc(nc3c2)[C@@H](C)NC(=O)[C@@H]2CCCN(N2)C1=O (single isomer, unassigned) | < 100 |  |  | 99 | < 1000
3 | CC(C)[C@@H]1OC(=O)C2(/C=C/c3ccc4ccc(nc4c3)[C@@H](C)NC(=O)[C@@H]3CCCN(N3)C(=O)[C@H](C)NC1=O)COCCO2 (single isomer, unassigned) [Compound 43] | 101 to 1000 |  |  | 86 | < 1000
4 | CC(C)[C@@H]1OC(=O)C2(/C=C/c3ccc4ccc(nc4c3)[C@@H](C)NC(=O)[C@@H]3CCCN(N3)C(=O)[C@H](C)NC1=O)COC(C)(C)CO2 (single isomer, unassigned) [Compound 100] | < 100 |  |  | 98 | < 1000
